Zika virus NS2B-NS3: effect of single substitutions on growth in cell culture

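Pools of virus carrying all single amino acid changes were selected for growth in Huh-7.5 cells. Sequencing of three replicate libraries (two for positions 207-308) was averaged into one effect per change. The study looked for pockets that tolerate few changes, as a guide for inhibitor design.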

Protein: NS2B and the protease part of NS3 of Zika virus strain MR766. Positions count along the chain below; NS2B spans 2-131 and NS3 starts at 132.
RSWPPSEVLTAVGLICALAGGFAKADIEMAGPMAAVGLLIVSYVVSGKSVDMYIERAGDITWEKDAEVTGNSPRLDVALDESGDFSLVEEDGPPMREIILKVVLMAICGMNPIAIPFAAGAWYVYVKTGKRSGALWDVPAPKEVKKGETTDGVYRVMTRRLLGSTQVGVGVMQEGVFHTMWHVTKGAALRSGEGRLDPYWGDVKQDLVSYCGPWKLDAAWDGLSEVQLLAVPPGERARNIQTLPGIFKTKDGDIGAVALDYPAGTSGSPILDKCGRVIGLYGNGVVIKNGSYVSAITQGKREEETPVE

Scale: log2 effect, wild type = 0; the lower, the more harmful to the virus.
A change reads original residue, position, new residue.
An asterisk is a stop codon; stop codons read about -7, near the floor of the assay.

mutation | effect (log2)
K48S | -4.83
Y154V | -6.11
T149S | -3.91
K101L | -8.37
E193I | -2.35
P116* | -6.88
I296W | -4.58
G299K | -4.32
L161A | -5.61
Y292A | -4.90
R155P | -7.18
V183W | -5.40
E55L | -3.60
A17K | -5.70
I98T | -3.11
A263S | -1.31
S191C | -4.63
V156E | -6.00
R236T | 1.63
I287Q | 1.42
S224H | -4.68
G186I | -4.54
N283I | -6.02
R131D | -5.58
K248R | 1.05
P141Y | -4.68
P262G | -5.17
V169K | -5.45
A134L | -7.03
E225R | -7.00
P139T | -6.95
Y154G | -6.24
G212P | -7.54
E97I | -4.50
E63K | -4.14
I270* | -6.07
I15Q | -6.19
D26W | -5.20
D80C | -5.86
Y123C | -2.34
C108K | -5.62
S49M | -3.43
G234N | -0.68
V12R | -6.86
P4D | -5.25
V126G | -1.66
Y125C | -5.30
P198M | -6.62
R236L | 1.28
G201K | -5.97
L9K | -5.30
I27T | -2.17
N283A | -5.67
E148P | -2.98
P4E | -5.62
M105H | -5.54
A114H | -5.61
K215M | -2.61
W3Q | -6.72
G175V | -3.77
R155V | -6.21
F22K | -6.14
I98H | -5.05
R160Y | -5.65
H182M | -3.99
S294Q | -4.52
A11C | -1.39
L100K | -5.48
P198F | -6.71
S49T | 0.60
M110R | -3.39
N239D | -5.39

The last 9 entries again:

mutation	effect (log2)
R160Y	-5.65
H182M	-3.99
S294Q	-4.52
A11C	-1.39
L100K	-5.48
P198F	-6.71
S49T	0.60
M110R	-3.39
N239D	-5.39

The authors count -1 or higher as tolerated. Position 1 is the last residue of NS2A.
Positions 1-103, 104-206 and 207-308 were made and measured as separate libraries.
Six mutants with high scores were retested singly and none clearly outgrew wild type, so positive values are not proof of better growth.

Reference: Ni et al. 2025, doi:10.1038/s41467-025-63602-z.